Measured values from several laboratories, pooled; numbers as filed in NIAID ChemDB.

All rows: whole-cell or culture tests; species: Plasmodium falciparum; measure: EC50

An empty or dashed field is not shown. ECn is the concentration giving n% inhibition of infection, replication or growth. Conditions beyond the fields shown may differ between rows.

structure,strain or isolate,changes,method,value
C[C@H]1Cc2c([nH]c3cc(F)c(F)cc23)[C@@]2(N1)C(=O)Nc1ccc(Cl)cc12,GNF-Pf4492R-3,GNF-Pf4492-resistant A187V,SYBR Green / fluorescence,0.00288 µM
COc1ccc2[nH]c(-c3ccc(Cc4ccc(OC(F)(F)F)cc4)cc3)c(C)c(=O)c2c1,3D7,-,-,0.008 µM
COC(=O)c1cccc(C2(O)C(N)=Nc3ccc(Cl)cc32)c1,3D7,-,-,0.783 µM
O=C1NC(c2c[nH]c3ccc(Br)cc23)Nc2ccccc21,W2,-,LDH,>14.49 µM
O=C(Nc1cc(C(F)(F)F)ccc1-n1cncn1)C1(c2ccccc2)CC1,3D7A,-,-,0.103 µM
CCN(CC)CCCC(C)Nc1ccnc2cc(Cl)ccc12,Dd2 (CM1),-,SYBR Green / fluorescence,0.0106 µM
O=C(CCCCCNc1ccnc2cc(Cl)ccc12)N[C@H]1C(=O)N(c2ccc(F)cc2)[C@H]1/C=C/c1ccccc1,W2,Chloroquine-resistant,flow cytometry,0.1874 µM
N=C(N)c1ccc(NCCCCCCNc2ccc(C(=N)N)cc2N)c(N)c1,W2,-,hypoxanthine uptake,0.133 µM
CC1CC2CCC3CC(CCc4ccc(F)cc4)N=C(N1)N32,W2,-,LDH,13.24 µM
O=C(Nc1cc(C(F)(F)F)ccc1-n1cncn1)C1(c2cccc(C(F)(F)F)c2)CC1,TM90C2B,-,-,0.004 µM
CCN(CC)CCCC(C)Nc1ccnc2cc(Cl)ccc12,RKL9,-,-,0.188 µM
NC1=Nc2ccc(Cl)cc2[C@]1(O)c1ccccc1,3D7,-,-,0.313 µM
Cc1[nH]nc2c1C(c1cc(Cl)cc(Cl)c1)(C1CC1)C(C#N)=C(N)O2,NF54,-,radiometric,>2.77 µM
Cc1ccccc1C1(O)C(N)=Nc2ccccc21,Dd2,-,-,0.152 µM
CN1CCN(C(=O)n2cc(-c3ccnc(N)n3)c3cc(Br)ccc32)CC1,W2,-,LDH,>14.49 µM
c1cc(C2=NCCN2)ccc1OCCCCOc1ccc(C2=NCCN2)cc1,W2,-,hypoxanthine uptake,0.54 µM
Cc1c(-c2ccc(Cc3ccc(OC(F)(F)F)cc3)cc2)[nH]c2cc(O)ccc2c1=O,3D7,-,-,0.819 µM
Cn1nc(C(F)(F)F)c(-c2ccc(Br)cc2)c1NC(=O)Nc1ccc(F)cc1F,Dd2 (EF1),Multidrug-resistant,SYBR Green / fluorescence,0.1841 µM
NC1=Nc2ccc(Cl)cc2C1(O)c1ccccc1,Dd2,-,-,0.507 µM
COc1cc(C(=N)N)ccc1OCCCCOc1ccc(C(=N)N)cc1OC,W2,-,hypoxanthine uptake,0.403 µM
O=C(CCNc1ccnc2cc(Cl)ccc12)N[C@H]1C(=O)N(C2CCCCC2)[C@H]1/C=C/c1ccccc1,W2,Chloroquine-resistant,flow cytometry,0.4326 µM
c1cc(C2=NCCN2)ccc1OCCCCCOc1ccc(C2=NCCN2)cc1,D6,-,hypoxanthine uptake,0.072 µM
Cc1[nH]nc2c1C(c1cc(C#N)cc(-c3ccc(C(=O)NCCCN4CCN(C)CC4)s3)c1)(C(C)C)C(C#N)=C(N)O2,NF54,-,radiometric,0.94 µM
CCCCC[C@@H]1C[C@@H]2CC[C@@H]3C[C@H](CCCCC)NC(=N1)N32,D6,-,LDH,3.01 µM
O=C(O)c1cn(-c2ccc(Cl)cc2)nc1-c1ccccc1,RKL9,-,-,0.033 µM
Cc1c(-c2cccc(Cc3ccc(OC(F)(F)F)cc3)c2)[nH]c2ccc(Cl)cc2c1=O,3D7,-,-,0.034 µM
OCCNc1nc(NCCNc2ccnc3cc(Cl)ccc23)nc(N2CCOCC2)n1,W2,-,-,1.7 µM
CCC1(c2cc(Cl)cc(Cl)c2)C(C#N)=C(N)Oc2n[nH]c(C)c21,NF54,-,radiometric,>2.86 µM
CCc1ccc(Nc2nc(NCCNc3ccnc4cc(Cl)ccc34)nc(N3CCOCC3)n2)cc1,W2,-,-,0.67 µM
COc1cc2nc(N3CCCN(C)CC3)nc(NC3CCN(Cc4ccccc4)CC3)c2cc1OC,7G8,-,fluorescence,0.04 µM
N=C(N)c1ccc(OCCOc2ccc(C(=N)N)cc2)cc1,D6,-,hypoxanthine uptake,0.294 µM
Fc1ccc(Nc2nc(NCCNc3ccnc4cc(Cl)ccc34)nc(N3CCOCC3)n2)cc1,D6,-,-,0.24 µM
Cc1[nH]nc2c1C(c1cc(C#N)cc(N3CCNCC3)c1)(C(C)C)C(C#N)=C(N)O2,NF54,-,radiometric,4.15 µM
COc1ccccc1C1(O)C(N)=Nc2ccc(Cl)cc21,Dd2,-,-,0.057 µM
N=C(N)c1ccc(NCCCCNc2ccc(C(=N)N)cc2)cc1,W2,-,hypoxanthine uptake,0.135 µM
C=CCC[C@@H]1C[C@@H]2CCC[C@@H]3C[C@H](CCC=C)NC(=N1)N32,W2,-,LDH,7.66 µM
N=C(N)c1ccc(OCCCCCOc2ccc(C(=N)N)cc2Cl)c(Cl)c1,W2,-,hypoxanthine uptake,0.129 µM
O=C1[C@@H](NCCCNc2ccnc3cc(Cl)ccc23)[C@@H](/C=C/c2ccccc2)N1C1CCCCC1,W2,Chloroquine-resistant,flow cytometry,0.1431 µM
N=C(N)c1cccc(OCCCOc2cccc(C(=N)N)c2)c1,W2,-,hypoxanthine uptake,0.11 µM
Cc1[nH]nc2c1C(c1cc(C#N)cc(C(F)(F)F)c1)(C1CC=CC1)C(C#N)=C(N)O2,NF54,-,radiometric,0.18 µM
Cc1noc(C)c1Cn1cc(-c2ccnc(N)n2)c2ccccc21,W2,-,LDH,>14.49 µM
CC(C)=CCCC1CC2CCC3CC(C)NC(=N1)N23,D6,-,LDH,16.05 µM
O=[N+]([O-])c1ccc(N/N=C/c2cn(-c3ccc(Cl)cc3)nc2-c2ccccc2)c([N+](=O)[O-])c1,RKL9,-,-,0.068 µM
Fc1ccc(Nc2nc(NCCCCNc3ccnc4cc(Cl)ccc34)nc(N3CCOCC3)n2)cc1,W2,-,-,0.11 µM
Fc1ccc(CC[C@@H]2C[C@@H]3CC[C@@H]4C[C@H](CCc5ccc(F)cc5)NC(=N2)N43)cc1,D6,-,LDH,5.62 µM
O=C1[C@@H](NCCCNc2ccnc3cc(Cl)ccc23)[C@@H](/C=C/c2ccccc2)N1c1ccccc1,W2,Chloroquine-resistant,flow cytometry,0.1881 µM
Cc1[nH]nc2c1C(c1cc(C#N)cc(C(F)(F)F)c1)(C(C)C)C(C#N)=C(N)O2,NF54,-,radiometric,0.31 µM

For reference, 3 entries again:

structure	strain or isolate	changes	method	value
NC1=Nc2ccc(Cl)cc2[C@]1(O)c1ccccc1	3D7	-	-	0.313 µM
Cc1[nH]nc2c1C(c1cc(Cl)cc(Cl)c1)(C1CC1)C(C#N)=C(N)O2	NF54	-	radiometric	>2.77 µM
O=C1[C@@H](NCCCNc2ccnc3cc(Cl)ccc23)[C@@H](/C=C/c2ccccc2)N1C1CCCCC1	W2	Chloroquine-resistant	flow cytometry	0.1431 µM